PubChem BioAssay AID1259414 | Drosophila RNAi Screening Center, 2018

Aim: 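Host factors increasing or decreasing Wolbachia levels in cultured fly cells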 (primary screen)
Cells: Drosophila JW18 cells infected with Wolbachia
Knock-down reagent: long dsRNA against Drosophila genes, 0.25 µg dsRNA per well of a 384-well plate
Time to read-out: 5 days
Treatment: cells persistently infected with Wolbachia before knock-down; no added drug
Read-out: 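Imaged fluorescence in situ signal for Wolbachia 23S rRNA per DAPI-counted host cell, given as a robust z-score within each plate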
Direction: Wolbachia per cell robust z: higher = more Wolbachia per host cell than the plate typical
Call rule: 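Hit when robust z is 1.5 or more, or -1.5 or less, in at least two of three replicates; excludes dsRNAs with several or no targets, genes not expressed in JW18 and well A1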
In all, the deposit lists about 24,000 reagents; below is a random part of those that have a named target and a result. Over the whole deposit, about 1,210 (5%) got an active call. 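Inactive calls also include excluded dsRNAs with several or no targets, genes unexpressed in JW18, and well A1, regardless of score.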

emei (GeneID 39250) [DRSC10897] | Wolbachia per cell robust z, rep 1 = 0.201; Wolbachia per cell robust z, rep 2 = -0.701; Wolbachia per cell robust z, rep 3 = 0.778; outcome = inactive
emei (GeneID 39250) [DRSC22684] | Wolbachia per cell robust z, rep 1 = -0.128; Wolbachia per cell robust z, rep 2 = -0.17; Wolbachia per cell robust z, rep 3 = 0.323; outcome = inactive
Acyp2 (GeneID 41910) [DRSC15336] | Wolbachia per cell robust z, rep 1 = -0.0805; Wolbachia per cell robust z, rep 2 = 0.14; Wolbachia per cell robust z, rep 3 = 0.629; outcome = inactive
Acyp2 (GeneID 41910) [DRSC41445] | Wolbachia per cell robust z, rep 1 = -0.329; Wolbachia per cell robust z, rep 2 = -1.44; Wolbachia per cell robust z, rep 3 = -0.68; outcome = inactive
Vps29 (GeneID 33295) [DRSC00666] | Wolbachia per cell robust z, rep 1 = -0.216; Wolbachia per cell robust z, rep 2 = -0.249; Wolbachia per cell robust z, rep 3 = -10.7; outcome = inactive
CG6707 (GeneID 39168) [DRSC10697] | Wolbachia per cell robust z, rep 1 = -0.746; Wolbachia per cell robust z, rep 2 = -6.02; Wolbachia per cell robust z, rep 3 = -3.01; outcome = active
Idh3g (GeneID 43102) [DRSC15699] | Wolbachia per cell robust z, rep 1 = 0.655; Wolbachia per cell robust z, rep 2 = -1.57; Wolbachia per cell robust z, rep 3 = -0.000811; outcome = inactive
Idh3g (GeneID 43102) [DRSC26628] | Wolbachia per cell robust z, rep 1 = -0.0561; Wolbachia per cell robust z, rep 2 = -0.183; Wolbachia per cell robust z, rep 3 = -0.676; outcome = inactive
CG7881 (GeneID 35521) [DRSC04898] | Wolbachia per cell robust z, rep 1 = 0.439; Wolbachia per cell robust z, rep 2 = -1.2; Wolbachia per cell robust z, rep 3 = -0.723; outcome = inactive
RpL22-like (GeneID 37684) [DRSC04582] | Wolbachia per cell robust z, rep 1 = -1.21; Wolbachia per cell robust z, rep 2 = 0.3; Wolbachia per cell robust z, rep 3 = 0.429; outcome = inactive
CG1827 (GeneID 35989) [DRSC06719] | Wolbachia per cell robust z, rep 1 = -1.94; Wolbachia per cell robust z, rep 2 = -0.355; Wolbachia per cell robust z, rep 3 = -0.0981; outcome = inactive
CAH7 (GeneID 41238) [DRSC15524] | Wolbachia per cell robust z, rep 1 = 0.609; Wolbachia per cell robust z, rep 2 = -0.637; Wolbachia per cell robust z, rep 3 = 0.201; outcome = inactive
hrg (GeneID 49636) [DRSC07502] | Wolbachia per cell robust z, rep 1 = -0.125; Wolbachia per cell robust z, rep 2 = 0.289; Wolbachia per cell robust z, rep 3 = -0.926; outcome = inactive
PGRP-SC2 (GeneID 35862) [DRSC06481] | Wolbachia per cell robust z, rep 1 = -1.38; Wolbachia per cell robust z, rep 2 = -0.445; Wolbachia per cell robust z, rep 3 = -1.03; outcome = inactive
PGRP-SC2 (GeneID 35862) [DRSC25449] | Wolbachia per cell robust z, rep 1 = 1.29; Wolbachia per cell robust z, rep 2 = 0.315; Wolbachia per cell robust z, rep 3 = 1.16; outcome = inactive
CG10395 (GeneID 35490) [DRSC04840] | Wolbachia per cell robust z, rep 1 = 0.441; Wolbachia per cell robust z, rep 2 = 0.324; Wolbachia per cell robust z, rep 3 = 0.0285; outcome = inactive
CG10395 (GeneID 35490) [DRSC26811] | Wolbachia per cell robust z, rep 1 = 0.269; Wolbachia per cell robust z, rep 2 = 0.323; Wolbachia per cell robust z, rep 3 = 0.798; outcome = inactive
opm (GeneID 32435) [DRSC20141] | Wolbachia per cell robust z, rep 1 = -2.58; Wolbachia per cell robust z, rep 2 = 0.184; Wolbachia per cell robust z, rep 3 = 0.0877; outcome = inactive
opm (GeneID 32435) [DRSC22135] | Wolbachia per cell robust z, rep 1 = 0.282; Wolbachia per cell robust z, rep 2 = -0.736; Wolbachia per cell robust z, rep 3 = 0.0404; outcome = inactive
opm (GeneID 32435) [DRSC29575] | Wolbachia per cell robust z, rep 1 = 0.948; Wolbachia per cell robust z, rep 2 = 1.2; Wolbachia per cell robust z, rep 3 = 2.71; outcome = inactive
CG15263 (GeneID 34898) [DRSC01974] | Wolbachia per cell robust z, rep 1 = -1.32; Wolbachia per cell robust z, rep 2 = -0.335; Wolbachia per cell robust z, rep 3 = 0.0455; outcome = inactive
CG15263 (GeneID 34898) [DRSC27309] | Wolbachia per cell robust z, rep 1 = 0.297; Wolbachia per cell robust z, rep 2 = 0.428; Wolbachia per cell robust z, rep 3 = 0.108; outcome = inactive
Tmep (GeneID 38185) [DRSC08215] | Wolbachia per cell robust z, rep 1 = 1.05; Wolbachia per cell robust z, rep 2 = 0.858; Wolbachia per cell robust z, rep 3 = 0.602; outcome = inactive
Tmep (GeneID 38185) [DRSC26652] | Wolbachia per cell robust z, rep 1 = 0.198; Wolbachia per cell robust z, rep 2 = -0.353; Wolbachia per cell robust z, rep 3 = -0.402; outcome = inactive

Single entries from above:
Under “Wolbachia per cell robust z, rep 3”, CG15263 (GeneID 34898) [DRSC01974] reads 0.0455
Value for RpL22-like (GeneID 37684) [DRSC04582] in “outcome”: inactive
For “outcome”, CG6707 (GeneID 39168) [DRSC10697] has active
